Experimental data reported in the supplement of paper PMC12613149.

Experiments:
[1] = reversed-phase LC retention time (C18, 15 min MeOH gradient); higher = more hydrophobic / later elution; conditions: ionization mode: ESI+; ion species: [M+H]+
Protocol: (§1)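 Reference mixture of environmental contaminants analysed by RP-LC (BEH C18, 50 °C; ESI+ with water/MeOH plus formic acid and ammonium formate, ESI- with ammonium bicarbonate) coupled to a timsTOF Pro 2 with trapped ion mobility in nitrogen (ramp/accumulation 100 ms). CCS was calibrated with Agilent tune mix (CCS compendium) and averaged over five injections at 0.5-500 ng/mL. The table reports the lowest-CCS (putative monomer) peak; retention times are on the same gradient.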

[2] = collision cross section (TIMS, N2 drift gas) of the primary ion; higher = larger gas-phase ion size; conditions: ionization mode: ESI+; ion species: [M+H]+
Protocol: as §1

In the case of CC(C)(C)c1ccc(OP(=O)(Oc2ccc(C(C)(C)C)cc2C(C)(C)C)Oc2ccc(C(C)(C)C)cc2C(C)(C)C)c(C(C)(C)C)c1 [Tris(2,4-di-tert-butylphenyl)phosphate], the “reversed-phase LC retention time” value [1] is reported as 21 min and the collision cross section [2] is reported as 277.43 Å².
